Results of unrelated studies side by side (data: NIAID ChemDB).

All rows: host cell toxicity; cell line: MT-4; read-out: CC50

CCn is the concentration with n% toxicity to the cells.

{"compound": "C=C(C)C12C[C@@H](COCc3ccccc3)[C@@]3(OO1)[C@@H]1[C@H]2OCCCCCCC[C@H](C)[C@@H]2[C@@H]3C3(O[C@]2(C)OC3=O)[C@H](O)[C@@]2(CO)O[C@@H]12", "method": "ATP / luminescence", "value": "3.4 µM"}
{"compound": "Nc1ncc2ncn(CCOCP(=O)(O)O)c2n1", "value": ">396 µg/mL"}
{"compound": "CCC(C)(NC(=O)c1ccc(NC(=O)CSc2nc3ncccc3n2-c2ccc(C3CC3)c3ccccc23)c(Cl)c1)C(=O)O", "method": "MTT", "value": "5.04 µM"}
{"compound": "CC1(C)S[C@H]([C@H](NC(=O)Cc2ccccc2)C(=O)NCc2ccccc2)N[C@H]1C(=O)NCCNC(=O)[C@@H]1N[C@@H]([C@H](NC(=O)Cc2ccccc2)C(=O)NCc2ccccc2)SC1(C)C", "value": ">100 µM"}
{"compound": "COC(=O)[C@H](C)NP(=O)(OC[C@@H]1CC[C@H](n2cnc3c(N)ncnc32)O1)Oc1ccccc1", "value": "6.5 µM"}
{"compound": "CC(C)(C)NC(=O)[C@@H]1CN(Cc2cccnc2)CCN1C[C@@H](O)C[C@@H](Cc1ccccc1)C(=O)N[C@H]1c2ccccc2C[C@H]1O", "value": ">100 µM"}
{"compound": "CC(C)=CCc1c(O)cc2occ(-c3cc(O)c4c(c3)C=CC(C)(C)O4)c(=O)c2c1O", "value": "14 µg/mL"}
{"compound": "CCCCCCCCCCc1ccc2c(c1)N(C)C(C(C)C)C(=O)NC(CO)C2", "value": "5 µg/mL"}
{"compound": "CC(C)Nc1cccnc1N1CCN(C(=O)c2ccc(-c3ccccc3NS(C)(=O)=O)[nH]2)CC1", "value": ">200 µM"}
{"compound": "CCc1cc(CCc2nc3ccccc3o2)c(=O)[nH]c1C", "value": "188 µM"}
{"compound": "CC(C)Nc1cccnc1N1CCN(C(=O)c2ccc(-c3cccc(NS(C)(=O)=O)c3)[nH]2)CC1", "value": "21 µM"}
{"compound": "C=C(C)C12C[C@@H](C)[C@@]3(OO1)[C@H]([C@H]2O/C=C/C=C/CCCCCCCCC)[C@@H]1O[C@]1(CO)[C@@H](O)[C@]1(O)C(=O)C(C)=C[C@H]13", "method": "ATP / luminescence", "value": "9.4 µM"}
{"compound": "Cc1cn(-c2ccc3c(C)nc(CCCCCCC(=O)c4ccccc4)n3n2)cn1", "value": "260 µM"}
{"compound": "Cc1c(Cc2c(Cl)cccc2Cl)nc(SCc2ccccc2)[nH]c1=O", "method": "MTT", "value": ">64 µM"}
{"compound": "O=C1CSC(c2c(F)cccc2F)N1c1ncccn1", "value": ">426.2 µM"}
{"compound": "C=C(C)[C@@H]1CC[C@]2(CCO)CC[C@]3(C)C(CCC4[C@@]5(C)CC/C(=C\\O)C(C)(C)C5CC[C@]43C)C12", "method": "MTT", "value": ">200 µM"}
{"compound": "Cc1cc(Cl)nc(N2C(=O)CSC2c2c(F)cccc2F)n1", "value": ">73.1 µM"}
{"compound": "CC1(C)C=Cc2c(ccc3c2OC[C@@H](c2ccc(O)cc2O)C3)O1", "value": "4 µg/mL"}
{"compound": "Cc1cn([C@H]2C[C@H](N=[N+]=[N-])[C@@H](CO)O2)c(=O)[nH]c1=O", "value": "1.8 µg/mL"}
{"compound": "COc1ccc(CCNc2nc(NC(=S)Nc3ccc(Cl)cc3)nc(Oc3cc(=O)oc4ccccc34)n2)cc1OC", "method": "MTT", "value": "40.83 µg/mL"}
{"compound": "CN1C(=O)N(Cc2ccccc2)S(=O)(=O)c2cscc21", "value": "690 µM"}
{"compound": "COc1ccccc1CNC(=O)c1ccn(Cc2ccc(Cl)cc2)n1", "method": "ATP / luminescence", "value": ">50 µM"}
{"compound": "N#Cc1ccc(NC(=O)CSc2nc3ncccc3n2-c2ccc(C3CC3)c3ccccc23)c(Br)c1", "method": "MTT", "value": "2.78 µM"}
{"compound": "NOCc1ccccc1F", "value": "74.7 µg/mL"}
{"compound": "CC(C)[C@H](NC(=O)CCc1ccccn1)C(=O)N[C@@H](Cc1ccccc1)C(=O)C(F)(F)[C@H](Cc1ccccc1)NC(=O)[C@H](NC(=O)CCc1ccccn1)C(C)C", "value": ">100 µM"}
{"compound": "Cc1c(Cc2c(Cl)cccc2Cl)nc(SCc2cccc(C#N)c2)[nH]c1=O", "method": "MTT", "value": ">60 µM"}
{"compound": "O=C(N[C@@H](Cc1ccccc1)C[C@H](O)[C@H](Cc1ccccc1)NC(=O)OCc1ccccc1)OCc1ccccc1", "value": ">100 µM"}
{"compound": "COc1ccc(CCNc2nc(NC(=S)Nc3ccc(F)cc3)nc(Oc3cc(=O)oc4ccccc34)n2)cc1OC", "method": "MTT", "value": "14.55 µg/mL"}
{"compound": "CC(C)[C@H](NC(=O)OCc1ccccn1)C(=O)N[C@@H](Cc1ccccc1)C(=O)C(F)(F)[C@H](Cc1ccccc1)NC(=O)[C@@H](NC(=O)OCc1ccccn1)C(C)C", "value": ">100 µM"}
{"compound": "Cc1c(O)cccc1C(=O)N[C@@H](CSc1ccccc1)[C@@H](CN1C[C@H]2CCCC[C@H]2C[C@H]1C(=O)NC(C)(C)C)OC(=O)CCCCNC(=O)O[C@H]1[C@@H](C2COC(C)(C)O2)OC2OC(C)(C)O[C@H]21.O=C(O)C(F)(F)F.O=C(O)C(F)(F)F", "value": ">10 µM"}
{"compound": "Cc1nc(CCCCCCC(=O)c2ccccc2)n2nc(N(C)C)ccc12", "value": "27 µM"}
{"compound": "Cc1ccnc2c1NC(=O)c1cccnc1N2C1CC1", "method": "MTT", "value": ">4 µg/mL"}
{"compound": "CC(C)(C)NC(=O)[C@@H]1CN(Cc2cccnc2)CCN1C[C@H](C[C@@H](Cc1ccccc1)C(=O)N[C@H]1c2ccccc2C[C@H]1O)OC(=O)CCC(=O)O[C@H]1[C@@H](C2COC(C)(C)O2)OC2OC(C)(C)O[C@H]21", "value": ">10 µM"}
{"compound": "C[C@H](CCC(=O)O)[C@H]1CC[C@H]2[C@@H]3[C@H](OS(=O)(=O)O)C[C@@H]4C[C@H](O)CC[C@]4(C)[C@H]3C[C@H](O)[C@]12C", "value": ">500 µg/mL"}
{"compound": "Nc1ccn([C@@H]2CO[C@H](CO)S2)c(=O)n1", "value": ">500 µM"}
{"compound": "C[C@H](CCC(=O)O)[C@H]1CC[C@H]2C3[C@H](OS(=O)(=O)O)C[C@@H]4C[C@H](O)CC[C@]4(C)[C@H]3CC[C@]12C", "value": "307 µg/mL"}
{"compound": "CC(C)Nc1cccnc1N1CCN(C(=O)c2c[nH]c(-c3ccccc3N)c2)CC1", "value": "98 µM"}
{"compound": "CCOC(=O)c1ccc(NC(=O)CSc2nc3ncccc3n2-c2ccc(C3CC3)c3ccccc23)c(Br)c1", "method": "MTT", "value": "3.19 µM"}
{"compound": "CC(C)Nc1cccnc1N1CCN(C(=O)c2ccc(-c3ccc(N)cc3)[nH]2)CC1", "value": "27 µM"}
{"compound": "CCCCCCCCCCc1ccc2c(c1)N(C)[C@@H](C(C)C)C(=O)N[C@H](CO)C2", "value": "10 µg/mL"}
{"compound": "CC(=O)Oc1ccc(/C=C/C(=O)O[C@@H](C(=O)O)[C@@H](OC(=O)/C=C/c2ccc(OC(C)=O)c(OC(C)=O)c2)C(=O)O)cc1OC(C)=O", "method": "XTT", "value": "45 µM"}
{"compound": "O=c1[nH]cnc2c1ncn2[C@H]1CC[C@@H](CO)O1", "value": "834.2 µM"}
{"compound": "N#C[C@]1(CO)O[C@@H](n2cnc3c(=O)[nH]cnc32)C[C@@H]1O", "method": "MTT", "value": "23 µM"}
{"compound": "Cc1cc(O)cc(O)c1", "method": "MTT", "value": "188 µM"}
{"compound": "CC(C)Nc1cccnc1N1CCN(C(=O)c2c[nH]c(-c3cccc(NS(C)(=O)=O)c3)c2)CC1", "value": "35 µM"}
{"compound": "C[C@H](CCC(=O)O)[C@H]1CC[C@H]2[C@@H]3[C@H](OS(=O)(=O)O)C[C@@H]4C[C@H](OS(=O)(=O)O)CC[C@]4(C)[C@H]3C[C@H](OS(=O)(=O)O)[C@]12C", "value": ">500 µg/mL"}
{"compound": "Nc1ccn([C@H]2CO[C@@H](CO)S2)c(=O)n1", "value": ">500 µM"}
{"compound": "Cc1cn([C@H]2C[C@H](N=[N+]=[N-])[C@@H](CO)O2)c(=O)[nH]c1=O", "method": "MTT", "value": "8.5 µM"}
{"compound": "Cc1ccnc2c1NC(=O)c1cccnc1N2C1CC1", "value": "683 µM"}
{"compound": "NOCc1ccccc1Cl", "value": "73.3 µg/mL"}
{"compound": "C[C@H](CCC(=O)O)[C@H]1CC[C@H]2[C@@H]3[C@H](O)C[C@@H]4C[C@H](O)CC[C@]4(C)[C@H]3CC[C@]12C", "value": "62 µg/mL"}
{"compound": "COc1ccc2c(C)nc(CCCCCCC(=O)c3ccccc3)n2n1", "value": "250 µM"}
{"compound": "C=C(C)C12C[C@@H](COCc3ccccc3)[C@@]3(OO1)[C@@H]1[C@H]2OCCCCCCC[C@@H](C)[C@H]2[C@H](C)C(=O)[C@@](O)([C@H](O)[C@@]4(CO)O[C@@H]14)[C@@H]23", "method": "ATP / luminescence", "value": "7.3 µM"}
{"compound": "Cc1c(Cc2c(Cl)cccc2Cl)nc(SCc2ccc(Cl)cc2)[nH]c1=O", "method": "MTT", "value": ">59 µM"}
{"compound": "Cc1cc(C)nc(N2C(=O)CSC2c2c(F)cccc2F)n1", "value": "152 µM"}
{"compound": "C[C@H](CCC(=O)O)[C@H]1CC[C@H]2C3[C@@H](O)C[C@@H]4C[C@H](O)CC[C@]4(C)[C@H]3CC[C@]12C", "value": "143 µg/mL"}
{"compound": "CCN1C(=O)N(Cc2cccc(Cl)c2)S(=O)(=O)c2cscc21", "value": "498 µM"}
{"compound": "CCOC(=O)c1oc2cc(O)cc(O)c2c(=O)c1Oc1ccc(OCc2ccccc2)cc1OCc1ccccc1", "value": ">25 µg/mL"}
{"compound": "COc1ccc(CS(=O)(=O)c2nc(Cc3c(Cl)cccc3Cl)c(C)c(=O)[nH]2)cc1", "method": "MTT", "value": "2.8 µM"}
{"compound": "Cc1cc(=O)[nH]c(N2C(=O)CSC2c2c(F)cccc2Cl)n1", "value": "1.32 µM"}
{"compound": "CC(C)(C)NC(=O)[C@@H]1C[C@@H]2CCCC[C@@H]2CN1C[C@@H](O)[C@H](Cc1ccccc1)NC(=O)[C@H](CC(N)=O)NC(=O)c1ccc2ccccc2n1", "value": ">10 µM"}
{"compound": "COc1ccc(/C=C/C(=O)O)cc1OC", "method": "MTT", "value": "118 µM"}
{"compound": "OC[C@@H]1CC[C@H](n2cnc3c(=S)nc[nH]c32)O1", "value": "0.15 µM"}
{"compound": "CC(C)[C@H](NC(=O)N(C)Cc1ccccn1)C(=O)N[C@@H](Cc1ccccc1)C(=O)C(F)(F)[C@H](Cc1ccccc1)NC(=O)[C@@H](NC(=O)N(C)Cc1ccccn1)C(C)C", "value": "56 µM"}
{"compound": "CN(C)c1ncnc2c1ncn2[C@H]1CC[C@@H](CO)O1", "value": "132.4 µM"}
{"compound": "C[C@H](CCC(=O)NCCS(=O)(=O)O)[C@H]1CC[C@H]2[C@@H]3CC[C@@H]4C[C@H](O)CC[C@]4(C)C3CC[C@]12C", "value": "370 µg/mL"}
{"compound": "O=C(CCCCCCc1ncc2ccc(Cl)nn12)c1ccccc1", "value": "25 µM"}
{"compound": "COc1cc([C@@H]2c3c(cc(OC)c(O)c3OC)C[C@H](CO)[C@H]2CO)cc(OC)c1O", "method": "MTT", "value": ">200 µM"}
{"compound": "COc1c2c(cc3c1CCC(C)(C)O3)OC[C@@H](c1ccc(O)c(CC=C(C)C)c1O)C2", "value": ">10 µg/mL"}
{"compound": "Cc1cc(=O)[nH]c(N2C(=O)CSC2c2c(Cl)cccc2Cl)n1", "value": "179 µM"}
{"compound": "Cc1cn([C@H]2C[C@H](N=[N+]=[N-])[C@@H](CO)O2)c(=O)[nH]c1=O", "value": "10 µM"}
{"compound": "Cc1nc(CCCCCCC(=O)c2ccccc2)n2nc(Cl)ccc12", "value": "25 µM"}
{"compound": "CC(C)(C)NC(=O)[C@@H]1CN(Cc2cccnc2)CCN1C[C@H](C[C@@H](Cc1ccccc1)C(=O)N[C@H]1c2ccccc2C[C@H]1O)OC(=O)CCCCNC(=O)O[C@H]1[C@@H](C2COC(C)(C)O2)OC2OC(C)(C)O[C@H]21.O=C(O)C(F)(F)F.O=C(O)C(F)(F)F", "value": ">100 µM"}
{"compound": "O=C1CSC(c2c(F)cccc2Cl)N1c1ncccn1", "value": "136 µM"}
{"compound": "Cc1nc(CCCCCC(=O)Cc2ccccc2)n2nc(Cl)ccc12", "value": "28 µM"}
{"compound": "CCCCCCCCCCc1ccc2c(c1)N(C)[C@@H](C(C)C)C(=O)N[C@@H](CO)C2", "value": "5 µg/mL"}

For reference, 11 entries again:

{"compound": "CC(C)Nc1cccnc1N1CCN(C(=O)c2c[nH]c(-c3ccccc3N)c2)CC1", "value": "98 µM"}
{"compound": "Cc1cn([C@H]2C[C@H](N=[N+]=[N-])[C@@H](CO)O2)c(=O)[nH]c1=O", "value": "1.8 µg/mL"}
{"compound": "Cc1c(Cc2c(Cl)cccc2Cl)nc(SCc2ccccc2)[nH]c1=O", "method": "MTT", "value": ">64 µM"}
{"compound": "Cc1c(Cc2c(Cl)cccc2Cl)nc(SCc2cccc(C#N)c2)[nH]c1=O", "method": "MTT", "value": ">60 µM"}
{"compound": "CN(C)c1ncnc2c1ncn2[C@H]1CC[C@@H](CO)O1", "value": "132.4 µM"}
{"compound": "COc1ccc2c(C)nc(CCCCCCC(=O)c3ccccc3)n2n1", "value": "250 µM"}
{"compound": "Cc1c(O)cccc1C(=O)N[C@@H](CSc1ccccc1)[C@@H](CN1C[C@H]2CCCC[C@H]2C[C@H]1C(=O)NC(C)(C)C)OC(=O)CCCCNC(=O)O[C@H]1[C@@H](C2COC(C)(C)O2)OC2OC(C)(C)O[C@H]21.O=C(O)C(F)(F)F.O=C(O)C(F)(F)F", "value": ">10 µM"}
{"compound": "COc1ccc(/C=C/C(=O)O)cc1OC", "method": "MTT", "value": "118 µM"}
{"compound": "C[C@H](CCC(=O)O)[C@H]1CC[C@H]2[C@@H]3[C@H](OS(=O)(=O)O)C[C@@H]4C[C@H](OS(=O)(=O)O)CC[C@]4(C)[C@H]3C[C@H](OS(=O)(=O)O)[C@]12C", "value": ">500 µg/mL"}
{"compound": "CC1(C)C=Cc2c(ccc3c2OC[C@@H](c2ccc(O)cc2O)C3)O1", "value": "4 µg/mL"}
{"compound": "Nc1ccn([C@H]2CO[C@@H](CO)S2)c(=O)n1", "value": ">500 µM"}

Lines come from different laboratories, so protocols vary.